Test results: US20070123537A1, “Quinazoline derivatives for the treatment of herpesviral infections” (GPC Biotech AG, priority 2003, published 2007)
Structures were worked out from names or drawings and are uncertain.

By UniProt entry, the sequences of proteins in these tests, tags left out.
UniProt P16788, whole entry: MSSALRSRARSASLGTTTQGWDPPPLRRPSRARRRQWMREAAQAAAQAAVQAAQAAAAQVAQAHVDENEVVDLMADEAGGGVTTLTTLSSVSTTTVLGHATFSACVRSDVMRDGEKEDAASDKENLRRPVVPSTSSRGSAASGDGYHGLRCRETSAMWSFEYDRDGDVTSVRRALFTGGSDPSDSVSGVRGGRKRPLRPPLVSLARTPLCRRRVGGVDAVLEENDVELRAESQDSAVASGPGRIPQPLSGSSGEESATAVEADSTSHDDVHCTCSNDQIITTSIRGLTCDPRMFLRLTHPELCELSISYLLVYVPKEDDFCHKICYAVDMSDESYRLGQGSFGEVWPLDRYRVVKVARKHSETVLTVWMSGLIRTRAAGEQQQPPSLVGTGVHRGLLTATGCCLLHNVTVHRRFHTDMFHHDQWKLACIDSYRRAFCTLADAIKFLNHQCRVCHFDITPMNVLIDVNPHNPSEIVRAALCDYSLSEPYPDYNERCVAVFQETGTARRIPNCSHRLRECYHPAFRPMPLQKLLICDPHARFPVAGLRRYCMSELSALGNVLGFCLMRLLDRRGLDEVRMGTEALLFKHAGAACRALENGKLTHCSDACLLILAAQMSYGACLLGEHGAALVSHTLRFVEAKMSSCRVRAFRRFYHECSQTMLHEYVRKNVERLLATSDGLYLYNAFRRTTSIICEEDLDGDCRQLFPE

How the values were obtained:
viral kinase UL-97 = viral kinase UL-97 (Human cytomegalovirus, UniProt P16788); assay: UL97 Kinase-Assay on Immobilon Plate; assay type: biochemical
Protocol: UL97 Kinase-Assay on Immobilon Plate
The effect of quinazoline derivatives on the activity of the viral kinase UL-97 was tested. This kinase is derived from human cytomegalovirus (HCMV) (Marschall, M., et al., J. Gen Virol. 2001, 82,1439-1450.). The UL-97 gene was cloned into a baculovirus vector in order to produce GST (glutathione S-transferase) fusion protein. Insect cells (Sf9) were infected and GST-UL-97 purified via glutathione affinity columns according to standard procedures.
The UL-97 kinase reaction was performed as described (Marschall M. et aL, J. Gen. Virol. 2001, 82, 1439-1450). Briefly, 10 μl Assay buffer (3 μM ATP, 60 μg/ml myelin basic protein (MBP) as substrate), 1,0 μCi gamma[^33P]ATP and 10 μp, Basic buffer (20mM Tris-HCl 7.5, 500 μM MnCl2, 1 mM DTT (dithiothreitol)) were given to the test tube before adding various concentrations of the quinazoline derivatives. The reaction was started by adding 0.2 μl UL97 kinase, purified from infected Sf9-insect cells as described above. The total volume was adjusted with Basic buffer to a final volume of 30 μl. […]
Measuring Incorporation of Radioactivity
An Immobilon plate (Millipore) was rinsed with 50 μl methanol/well. […] After addition of 50 μl scintillation cocktail (Roth, Germany) per well incorporation of radioactivity was measured using a Betareader (Wallac) and enzymatic activity calculated.

HCMV AD-169 = assay: HCMV infection of HFFs, reporter gene based antiviral assay; assay type: cell-based, Human Cytomegalovirus (HCMV); details: 3 μM compound, reporter gene activity after seven days
Protocol: To examine the effect of the quinazoline derivatives on HCMV replication, HCMV infections were performed in a cellular system.
Human foreskin fibroblasts (HFFs) were grown to subconfluency in 12 well plates and infected with 0.25 tissue culture infectious doses of HCMV AD-169 carrying a reporter gene (HCMV based antiviral assay). Quinazoline derivatives (stocks in DMSO (Dimethylsulfoxide)) were diluted in culture medium to the concentrations indicated and added to the cells immediately after virus adsorption. The success of infection (reporter gene expressing cells) and the lack of cytotoxicity of the compound (confluent cell layer) was monitored by microscopy. After seven days, cell layers were harvested, lysed and subjected to the automated fluorometry measurement of reporter gene activity. Each panel refers to a determination in quadruplicate (infection in duplicate, lysate preparation and measurement in duplicate).

UL 97 = UL 97 (Human cytomegalovirus, UniProt P16788); assay: UL 97 in-cell activity: protection of HEK 293 cells ectopically expressing UL 97 against toxic GCV; details: at 10 μM; HEK 293 cells expressing UL 97
Protocol: Furthermore, clinical isolates of HCMV like R5, R3 and R2 were used for the infection of HFFs in a plaque reduction assay under the conditions described above. Parallel experiments on phenotype characterization , gene sequencing and UL 97-in-cell-activity assay (GCV phosphorylation) with cloned UL 97 were performed (Marschall, M., et al., J. Gen Virol. 2001, 82, 1439-1450).
Furthermore, (IC50)-values of HCMV replication was measured for some compounds in a cellular system. Some quinazoline derivatives protect HEK 293 cells ectopially expressing UL 97 against toxic concentrations of GCV (10 and 20 μM respectively).

SMILES: Brc1cccc(Nc2ncnc3ccccc23)c1
- inhibition of UL 97-kinase activity (in words) (viral kinase UL-97): potent inhibitors
- IC50 (viral kinase UL-97; read-out: UL 97 IC 50, 3 μM ATP, MBP substrate): 400 nM
- HCMV AD 169 Replication [%] of control at 3 μM (HCMV AD-169): 70%
- UL 97 GCV [%] growth at conc. [μM] (UL 97): 47% 10 μM
